Here are results for one molecule from PMC5705639 (Scientific Reports, 2017).

Amino acid sequences for entries named in this document (tags omitted). A change or cut given only in a name is not applied to a line headed by its entry.
UniProt Q93UJ2: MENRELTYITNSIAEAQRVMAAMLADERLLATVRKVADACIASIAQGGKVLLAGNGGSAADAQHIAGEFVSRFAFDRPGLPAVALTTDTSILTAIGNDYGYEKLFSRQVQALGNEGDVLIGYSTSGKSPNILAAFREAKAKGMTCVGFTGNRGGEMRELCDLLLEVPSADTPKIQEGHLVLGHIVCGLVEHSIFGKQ

The structures appear in SMILES notation.

The test has as its target GmhA (Burkholderia pseudomallei, UniProt Q93UJ2). Conditions: read-out: K 1/2.

On to `O=P(O)(O)OC[C@@H](O)[C@H]1OC(O)(CO)[C@@H](O)[C@@H]1O` (stereo partly shown) [sedoheptulose-7-phosphate], for which the Km stood at 140 ± 20 µM.
